Results from paper PMC9718554, “Discovery of a fragment hit compound targeting D-Ala:D-Ala ligase of bacterial peptidoglycan biosynthesis” (Journal of Enzyme Inhibition and Medicinal Chemistry, 2022).

Assays:
[1] = Phosphate-binding assay (malachite green, no enzyme); details: at 5 mM
[2] = Thiol reactivity assay (reduced DTNB, TNB2- depletion); details: 100 μM compound, 37 °C, 12 h
[3] = Resazurin redox activity assay (free radicals); details: for Resazurin assay activity flag: with 100 μM DTT
[4] = HRP-PR redox activity assay (H2O2); details: for HRP-PR assay activity flag: 100 μM compound, with or without 1 mM DTT
[5] = H2DCFDA redox activity assay (ROS); details: for H2DCFDA assay activity flag: 100 μM compound, with or without 100 μM TCEP

Cc1noc(C)c1C(=O)NCC1Cn2cccc2CN1C (stereo not drawn) [Compound 5]
Phosphate binding, free phosphate [1]: 10% free phosphate at 5 mM
Thiol reactivity [2]: Not reactive
Resazurin assay fluorescence relative to DMSO blank ([3]; 1 µM cpd): 1.0
Resazurin assay fluorescence relative to DMSO blank ([3]; 10 µM cpd): 1.1
Resazurin assay activity flag [3]: Not active
HRP-PR assay activity flag [4]: Not active
HRP-PR assay absorbance relative to DMSO blank ([4]; 1 mM DTT): 1.0
HRP-PR assay absorbance relative to DMSO blank ([4]; Redox-free): 0.9
H2DCFDA assay fluorescence relative to DMSO blank ([5]; 100 µM TCEP): 2.4
H2DCFDA assay activity flag [5]: Active
H2DCFDA assay fluorescence relative to DMSO blank ([5]; Redox-free): 3.9

Cc1cccc(-c2ccnc3c(C(=O)O)cnn23)c1 [Compound 3, 7-(m-Tolyl)pyrazolo[1,5-a]pyrimidine-3-carboxylic acid]
Phosphate binding, free phosphate [1]: 111% free phosphate at 5 mM
Thiol reactivity [2]: Not reactive
Resazurin assay fluorescence relative to DMSO blank ([3]; 1 µM cpd): 1.1
Resazurin assay fluorescence relative to DMSO blank ([3]; 10 µM cpd): 1.0
Resazurin assay activity flag [3]: Not active
HRP-PR assay activity flag [4]: Not active
HRP-PR assay absorbance relative to DMSO blank ([4]; 1 mM DTT): 1.0
HRP-PR assay absorbance relative to DMSO blank ([4]; Redox-free): 1.1
H2DCFDA assay fluorescence relative to DMSO blank ([5]; 100 µM TCEP): 1.0
H2DCFDA assay activity flag [5]: Not active
H2DCFDA assay fluorescence relative to DMSO blank ([5]; Redox-free): 1.1

Nc1ccc2ncc(C(=O)O)c(O)c2c1 [Compound 7, 6-Amino-4-hydroxyquinoline-3-carboxylic acid]
Phosphate binding, free phosphate [1]: 89% free phosphate at 5 mM
Thiol reactivity [2]: Not reactive
Resazurin assay fluorescence relative to DMSO blank ([3]; 1 µM cpd): 1.0
Resazurin assay fluorescence relative to DMSO blank ([3]; 10 µM cpd): 1.1
Resazurin assay activity flag [3]: Not active
HRP-PR assay activity flag [4]: Not active
HRP-PR assay absorbance relative to DMSO blank ([4]; 1 mM DTT): 1.0
HRP-PR assay absorbance relative to DMSO blank ([4]; Redox-free): 0.9
H2DCFDA assay fluorescence relative to DMSO blank ([5]; 100 µM TCEP): 2.1
H2DCFDA assay activity flag [5]: Not active
H2DCFDA assay fluorescence relative to DMSO blank ([5]; Redox-free): 1.4

COCc1cn(C2CNC2)nn1 [Compound 8]
Phosphate binding, free phosphate [1]: 85% free phosphate at 5 mM
Thiol reactivity [2]: Not reactive
Resazurin assay fluorescence relative to DMSO blank ([3]; 1 µM cpd): 0.9
Resazurin assay fluorescence relative to DMSO blank ([3]; 10 µM cpd): 0.9
Resazurin assay activity flag [3]: Not active
HRP-PR assay activity flag [4]: Not active
HRP-PR assay absorbance relative to DMSO blank ([4]; 1 mM DTT): 1.0
HRP-PR assay absorbance relative to DMSO blank ([4]; Redox-free): 0.8
H2DCFDA assay fluorescence relative to DMSO blank ([5]; 100 µM TCEP): 10.6
H2DCFDA assay activity flag [5]: Active
H2DCFDA assay fluorescence relative to DMSO blank ([5]; Redox-free): 8.0

CCOc1ccc2c(n1)CCN(C(=O)c1ccccn1)C2 [Compound 6, (2-Ethoxy-7,8-dihydro-1,6-naphthyridin-6(5H)-yl)(pyridin-2-yl)methanone]
Phosphate binding, free phosphate [1]: 23% free phosphate at 5 mM
Thiol reactivity [2]: Not reactive
Resazurin assay fluorescence relative to DMSO blank ([3]; 1 µM cpd): 1.3
Resazurin assay fluorescence relative to DMSO blank ([3]; 10 µM cpd): 4.3
Resazurin assay activity flag [3]: Active
HRP-PR assay activity flag [4]: Not active
HRP-PR assay absorbance relative to DMSO blank ([4]; 1 mM DTT): 1.0
HRP-PR assay absorbance relative to DMSO blank ([4]; Redox-free): 0.9
H2DCFDA assay fluorescence relative to DMSO blank ([5]; 100 µM TCEP): 1.1
H2DCFDA assay activity flag [5]: Not active
H2DCFDA assay fluorescence relative to DMSO blank ([5]; Redox-free): 1.3

COc1ccc(-n2c(C)ccc2C)nc1 [Compound 4]
Phosphate binding, free phosphate [1]: 29% free phosphate at 5 mM
Thiol reactivity [2]: Reactive
Resazurin assay fluorescence relative to DMSO blank ([3]; 1 µM cpd): 1.1
Resazurin assay fluorescence relative to DMSO blank ([3]; 10 µM cpd): 2.3
Resazurin assay activity flag [3]: Active
HRP-PR assay activity flag [4]: Not active
HRP-PR assay absorbance relative to DMSO blank ([4]; 1 mM DTT): 1.0
HRP-PR assay absorbance relative to DMSO blank ([4]; Redox-free): 0.8
H2DCFDA assay fluorescence relative to DMSO blank ([5]; 100 µM TCEP): 1.9
H2DCFDA assay activity flag [5]: Active
H2DCFDA assay fluorescence relative to DMSO blank ([5]; Redox-free): 3.4
